In PMC10143992, “Interkingdom Signaling of the Insect Pathogen Photorhabdus luminescens with Plants Via the LuxR solo SdiA” (Microorganisms, 2023):

Test system: T1, SdiA (LuxR solo, 6His-SdiA) (Photorhabdus luminescens DJC)
T1 sequence (looked up): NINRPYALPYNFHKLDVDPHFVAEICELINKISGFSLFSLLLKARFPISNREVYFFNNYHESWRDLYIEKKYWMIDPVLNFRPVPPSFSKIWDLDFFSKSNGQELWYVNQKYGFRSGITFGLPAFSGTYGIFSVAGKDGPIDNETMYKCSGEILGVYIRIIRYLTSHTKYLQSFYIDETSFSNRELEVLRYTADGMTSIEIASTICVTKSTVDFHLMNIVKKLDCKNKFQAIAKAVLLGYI
Assay: SPR
Settings: 3.3% (v/v) plant root exudate (PRE), SPR Biacore T200, SA chip, HBS-EP+ (10 mM HEPES pH 7.4, 150 mM NaCl, 3 mM EDTA, 0.005% Tween-20), SdiA 1.5625-200 nM, 30 uL/min, 1:1 fit, temperature not stated, recombinant protein, residues 1-241, label: 5' biotin on fwd strand, probe letters rebuilt from the primers and the genome

Row | Sequence | Kd (ka 8.2e4 /M/s, kd 1.1e-3 /s) [µM] | Kd (ka 1.8e5 /M/s, kd 2.0e-2 /s) [µM]
1 | GACACCTCTTTACATATTTAAACTATTTATTGGGAATCGAAAGGTTATTTTGCTTACTCATTATTATTCTAATAACTTTCTTTTTATATAATTAACTATTAAAGTTGAAACAGCTACTGGGATAAATCATAGTTTATATGGGAAAATTACTCATATATTTATTAGGTATTGCTTCATATAG (double strand) [PaidA promoter fragment] | 0.0133 | –
2 | GATTATTAGGATTTCAATCCTATTGATATAATTTCCCCTGTTTACCAATAATACATTGTGATTTATCAGACATTGTTTCTGTATAACAGTAAATAATTATTTTCTTTATTAAATGTAAATTTTGCTACTATAATAAATATTAGGATTCACTATCAATATTCTTAATTTTCAAGAGGACATTGA (double strand) [PsdiA promoter fragment] | – | 0.109

For at least one entry, the source does not settle the construct or the ends of the probe. Where a protein sequence is shown, tags need not be part of it.
